Compound potency records, mixed from different reports. Data source: NIAID ChemDB in PubChem.

All rows: target-level tests

Two numbers with a dash give a range or band. ICn: concentration for n% inhibition. Neighbouring rows are from separate reports. Percent inhibition refers to the dose given; in toxicity tests it is the harm to the cells. An empty or dashed field is not shown.

SMILES,endpoint,strain or isolate,tested at,target,agent,read by,result
CC[C@@H](C=O)NC(=O)[C@@H]1C[C@@H](OCc2c(C)noc2C)CN1C(=O)[C@@H](NC(=O)[C@@H](NC(=O)c1cnccn1)C(C)C)C(C)C,Ki,,,NS3 protease,Hepatitis C virus,,1–100 µM
CC[C@H](NC(=O)[C@@H](NC(=O)[C@@H](NC(=O)[C@H](CC(C)C)NC(=O)[C@@H](CCC(=O)O)NC(=O)[C@H](CC(=O)O)NC(C)=O)[C@@H](C)CC)C1CCCCC1)C(O)/C=C/c1ccccc1,IC50,,,HCV NS3 protease,Hepatitis C virus,,>10 µM
CN(C)CCNc1cc(C(=O)Nc2ccc3cn[nH]c3c2)c(F)cc1F,inhibition,,0.1 µg/mL,Reverse transcriptase,Hepatitis B virus,,36%
CC[C@H](NC(=O)[C@H](CC(C)C)NC(=O)[C@@H](NC(=O)[C@@H](NC(=O)[C@H](CC(=O)O)CC(=O)[C@H](CCC(=O)O)NC(C)=O)C(C)C)C(C)C)C(=O)C(=O)N1CCOCC1,Ki,,,NS3 protease,Hepatitis C virus,,1–100 µM
C/C=C/C(=O)[C@H](CC)NC(=O)[C@@H](NC(=O)[C@@H](NC(=O)[C@H](CC(C)C)NC(=O)[C@@H](CCC(=O)O)NC(=O)[C@H](CC(=O)O)NC(C)=O)[C@@H](C)CC)C1CCCCC1,inhibition,,10 µM,HCV NS3 protease,Hepatitis C virus,,96%
CC[C@@H](C=O)NC(=O)[C@H](CC(C)C)NC(=O)[C@@H](NC(=O)[C@@H](NC(=O)c1ccc(=O)[nH]c1)C(C)C)C(C)C,Ki,,,NS3 protease,Hepatitis C virus,,1–100 µM
C[C@@H]1CCCC[C@H]1n1c(-c2cccn2C)nc2cc(C(=O)NC3(C(=O)Nc4ccc(/C=C/C(=O)O)cc4)CCCC3)ccc21,IC50,,,NS5B polymerase,Hepatitis C virus,,0.5–5 µM
O=C(Nc1ccc2cn[nH]c2c1)c1cc(NCCO)c(F)cc1F,inhibition,,0.01 µg/mL,Reverse transcriptase,Hepatitis B virus,,33%
CC[C@@H](C=O)NC(=O)[C@@H]1C[C@@H](OCc2cccc3ccccc23)CN1C(=O)[C@@H](NC(=O)[C@@H](NC(=O)c1cnccn1)C(C)C)C(C)C,Ki,,,NS3 protease,Hepatitis C virus,,1–100 µM
O=C(NC(C(=O)O)c1cccc(O)c1)c1cnn2c(C3CCCCC3)c(-c3ccc(F)cc3)cnc12,IC50,,,RNA-dependent RNA polymerase,Hepatitis C virus,,<1 µM
O=C(NC1(C(=O)Nc2ccc(N3CCOCC3)nc2)CCCC1)c1ccc2c(c1)nc(-c1ccoc1)n2C1CCCCC1,IC50,,,NS5B polymerase,Hepatitis C virus,,0.5–5 µM
CC[C@H](NC(=O)[C@@H](NC(=O)[C@@H](NC(=O)[C@H](CC(C)C)NC(=O)[C@@H](CCC(=O)O)NC(=O)[C@H](CC(=O)O)NC(C)=O)[C@@H](C)CC)C1CCCCC1)C(O)/C=C/c1ccc(OC)cc1,IC50,,,HCV NS3 protease,Hepatitis C virus,,>10 µM
CC[C@@H](C=O)NC(=O)[C@@H]1C[C@@H](OCc2ccccc2)CN1C(=O)[C@@H](NC(=O)[C@@H](NC(=O)NC)C(C)C)C(C)C,Ki,,,NS3 protease,Hepatitis C virus,,1–100 µM
O=[N+]([O-])c1ccc(-c2cc3c(C(F)(F)F)cc(C(F)(F)F)nc3n3c(-c4ccc([N+](=O)[O-])cc4)cnc23)cc1,IC50,JFH-1,,Envelope glycoprotein 2,Hepatitis C virus,luciferase / reporter gene,>20 µM
CS(=O)(=O)c1cccc(Oc2ccc(-c3cnc4c(-c5nn[nH]n5)cnn4c3C3CCCCC3)cc2)c1,IC50,,,RNA-dependent RNA polymerase,Hepatitis C virus,,1–10 µM
Cc1ccc(-c2cc3c(C(F)(F)F)cc(C(F)(F)F)nc3n3c(-c4ccc(C)cc4)cnc23)cc1,IC50,JFH-1,,Envelope glycoprotein 2,Hepatitis C virus,luciferase / reporter gene,>20 µM
CC[C@H](NC(=O)[C@@H](NC(=O)[C@@H](NC(=O)[C@H](CC(C)C)NC(=O)[C@@H](CCC(=O)O)NC(=O)[C@H](CC(=O)O)NC(C)=O)[C@@H](C)CC)C1CCCCC1)C(=O)/C=C/CCCC(C)C,inhibition,,10 µM,HCV NS3 protease,Hepatitis C virus,,95%
O=C(Nc1ccc2[nH]ncc2c1)c1cc(NCCCn2ccnc2)c(F)cc1F,inhibition,,0.1 µg/mL,Reverse transcriptase,Hepatitis B virus,,55%
c1cc(OCc2ccncc2)cc(-c2cnc3c(-c4nn[nH]n4)cnn3c2C2CCCCC2)c1,IC50,,,RNA-dependent RNA polymerase,Hepatitis C virus,,1–10 µM
O=C(O)/C=C/c1ccc(NC(=O)C2(NC(=O)c3ccc4c(c3)nc(-c3ccccn3)n4C3CCC3)CCCC2)cc1,IC50,,,NS5B polymerase,Hepatitis C virus,,0.5–5 µM
CC[C@@H](C=O)NC(=O)[C@@H]1C[C@@H](OC(=O)Nc2ccccc2-c2ccccc2)CN1C(=O)[C@@H](NC(=O)[C@@H](NC(=O)c1cnccn1)C(C)C)C(C)C,Ki,,,NS3 protease,Hepatitis C virus,,1–100 µM
COc1ccc(-c2cnc3ccc4c(C(F)(F)F)cc(C(F)(F)F)nc4n23)cc1,IC50,JFH-1,,Envelope glycoprotein 2,Hepatitis C virus,luciferase / reporter gene,10.3 µM
CC(Cc1ccccn1)Nc1cc(C(=O)Nc2ccc3cn[nH]c3c2)c(F)cc1F,IC50,,,Reverse transcriptase,Hepatitis B virus,,0.1–1 µg/mL
CC(C)Nc1cccnc1N1CCN(C(=O)c2ccc(C(=O)Nc3ccccn3)cn2)CC1,IC50,,,Reverse transcriptase,Hepatitis B virus,,0.085 µg/mL
CCN(CCO)c1cc(C(=O)Nc2ccc3cn[nH]c3c2)c(F)cc1F,inhibition,,0.01 µg/mL,Reverse transcriptase,Hepatitis B virus,,42%
O=C(O)/C=C/c1ccc(NC(=O)[C@@H](CCc2ccccc2)NC(=O)c2ccc3c(c2)nc(-c2ccoc2)n3C2CCCCC2)cc1,IC50,,,NS5B polymerase,Hepatitis C virus,,0.5–5 µM
COc1cccc(-c2ccc(-c3cnc4c(C(=O)O)cnn4c3C3CCCCC3)cc2)c1,IC50,,,RNA-dependent RNA polymerase,Hepatitis C virus,,1–10 µM
CC(C)Nc1cccnc1N1CCN(C(=O)c2ccc(C(=O)NC3CC3)cn2)CC1,IC50,,,Reverse transcriptase,Hepatitis B virus,,0.237 µg/mL
O=c1c(O)c(-c2ccc(O)c(O)c2)oc2cc(O)c(O)c(O)c12,IC50,Genotype 1A,,RdRp,Hepatitis C virus,nucleotide incorporation,6.3 µM
O=C(Nc1ccc2[nH]ncc2c1)c1cc(NCCO)c(F)cc1F,IC50,,,Reverse transcriptase,Hepatitis B virus,,0.1–1 µg/mL
C[C@@H]1CCCC[C@H]1n1c(-c2ccoc2)nc2cc(C(=O)NC3(C(=O)Nc4ccc(/C=C/C(=O)O)cc4)CCCC3)ccc21,IC50,,,NS5B polymerase,Hepatitis C virus,,0.5–5 µM
CN(C)CCNc1cc(C(=O)Nc2ccc3[nH]ncc3c2)c(F)cc1F,inhibition,,0.01 µg/mL,Reverse transcriptase,Hepatitis B virus,,48%
Cc1cc(=O)oc2cc(NC(=O)C3(NC(=O)c4ccc5c(c4)nc(-c4ccoc4)n5C4CCCCC4)CCCC3)ccc12,IC50,,,NS5B polymerase,Hepatitis C virus,,0.5–5 µM
Nc1cccnc1N1CCN(C(=O)c2ccc(C(=O)NCc3ccccn3)cn2)CC1,IC50,,,Reverse transcriptase,Hepatitis B virus,,0.106 µg/mL
CCCC(=O)[C@H](CC)NC(=O)[C@@H](NC(=O)[C@@H](NC(=O)[C@H](CC(C)C)NC(=O)[C@@H](CCC(=O)O)NC(=O)[C@H](CC(=O)O)NC(C)=O)[C@@H](C)CC)C1CCCCC1,inhibition,,10 µM,HCV NS3 protease,Hepatitis C virus,,80%
COc1ccc(-c2cc(-c3ccc(C(F)(F)F)cc3)nc3cc(C(=O)O)nn23)cc1,IC50,,,RNA-dependent RNA polymerase,Hepatitis C virus,,>10 µM
CC(NC(=O)c1ccc2c(c1)nc(-c1ccoc1)n2C1CCCCC1)C(=O)Nc1cccc(-c2cccc(O)c2)c1,IC50,,,NS5B polymerase,Hepatitis C virus,,5–25 µM
CC(C)CNC(=O)c1ccc(C(=O)N2CCN(c3ncccc3NC(C)C)CC2)nc1,IC50,,,Reverse transcriptase,Hepatitis B virus,,0.002 µg/mL
CC[C@H](NC(=O)[C@@H](NC(=O)[C@@H](NC(=O)[C@H](CC(C)C)NC(=O)[C@@H](CCC(=O)O)NC(=O)[C@H](CC(=O)O)NC(C)=O)[C@@H](C)CC)C1CCCCC1)C(=O)CCc1nccs1,inhibition,,10 µM,HCV NS3 protease,Hepatitis C virus,,64%
CC(C)CNc1cc(C(=O)Nc2ccc3cn[nH]c3c2)c(F)cc1F,IC50,,,Reverse transcriptase,Hepatitis B virus,,>1 µg/mL
CC[C@@H](C=O)NC(=O)[C@@H]1C[C@@H](OC(=O)Nc2cccc(OC)c2)CN1C(=O)[C@@H](NC(=O)[C@@H](NC(=O)c1cnccn1)C(C)C)C(C)C,Ki,,,NS3 protease,Hepatitis C virus,,1–100 µM
CC(C)(C)OC(=O)N1CCC(NC(=O)c2ccc3c(c2)nc(-c2ccoc2)n3C2CCCCC2)(C(=O)Nc2ccc(/C=C/C(=O)O)cc2)CC1,IC50,,,NS5B polymerase,Hepatitis C virus,,<0.5 µM
CC(C)CNc1cccnc1N1CCN(C(=O)c2ccc(C(=O)NCCCn3ccnc3)cn2)CC1,IC50,,,Reverse transcriptase,Hepatitis B virus,,0.002 µg/mL
CC[C@H](NC(=O)[C@@H](NC(=O)[C@@H](NC(=O)[C@H](CC(C)C)NC(=O)[C@@H](CCC(=O)O)NC(=O)[C@H](CC(=O)O)NC(C)=O)[C@@H](C)CC)C1CCCCC1)C(=O)/C=C/c1ccccc1,inhibition,,10 µM,HCV NS3 protease,Hepatitis C virus,,96%
O=C(/C=C/c1ccc(O)c(O)c1)O[C@H]1[C@H](O)C[C@](O)(C(=O)O)C[C@H]1OC(=O)/C=C/c1ccc(O)c(O)c1,inhibition,HepG 2.2.15,50 µg/mL,HBsAg,Hepatitis B virus,ELISA,28.5%
Cc1ccc(-c2cnc3ccc4c(C(F)(F)F)cc(C(F)(F)F)nc4n23)cc1,IC50,,,Envelope glycoprotein 2,Hepatitis C virus,luciferase / reporter gene,9 µM
CCn1c(C(=O)O)cc2cc(NC(=O)C3(NC(=O)c4ccc5c(c4)nc(-c4ccoc4)n5C4CCCCC4)CCCC3)ccc21,IC50,,,NS5B polymerase,Hepatitis C virus,,<0.5 µM
O=C(Nc1ccc2[nH]ncc2c1)c1cc(NCCc2ccccn2)c(F)cc1F,inhibition,,0.01 µg/mL,Reverse transcriptase,Hepatitis B virus,,7%